# Measured values: article PMC4823272 (Frontiers in Microbiology, 2016)
# System: HA of the H1N1 strain (A/New Caledonia/20/99)
# Test: AFM binding of H1 HA to lipid membranes (HA-bound area)
# Set-up: species or system influenza virus A/New Caledonia/20/99 (H1N1)
# Details: 25°C, 1 h, n = 3
substance,measurement,setting,value
Neu5Acα2–3Galβ1–4Glcβ1–1′Cer [GM3],HA-bound area,[H1 HA] = 19 μM (Figure 6B),48%
same,"H1 HA binding, result in words","[HA] = 2.4–24 nM, HA-bound area",increased in proportion to HA concentrations
